Reference: patent publication US6677310B1, “Ring-expanded nucleosides and nucleotides” (Nabi, priority 1999, dated 2004)

System: Hepatitis B virus (HBV)
Test: Anti-HBV assay in 2.2.15 cells (virion DNA, HBV RI)
Format: cell-based
Settings: for Selectivity Index Virion: virion DNA
Protocol: The anti-HBV assays were performed according to the published protocol of Korba and Milman, (Korba, B. E.; Milman, G. Antiviral Res., 15, 217 1991), using cultures of 2.2.15 cells. In brief, the assay consisted of (a) seeding the chronically HBV-producing human liver cells (Acs et al. Proc. Nat. Acad. Sci., 84, 464 1987) into 24-well tissue culture plates, and growing to confluence, (b) adding test compounds daily for a continuous 9-day period, harvesting culture media after day 9 and (c) lysing treated cells 24 hours following day 9 of treatment for the analysis of extracellular virion DNA and intracellular HBV genomic forms.
Anti-HBV activity and the toxicity against confluent 2.2.15 cells were determined by the previously described procedure (Korba, B. E., et al. Antivir. Res., 19:55-70, 1992; Korba, B. E., et al. Antivir. Res., 15:217-228, 1991). Briefly, confluent cultures of HBV transfected 2.2.15 cells were maintained on either 96-well or 24-well flat-bottomed tissue culture plates in RPMI 1640 medium with 2% fetal bovine serum (FBS). The cells were treated with test compounds daily for nine consecutive days. The culture media were harvested on day 9 to quantify the amount of virion DNA. On day 10, the cells were lysed to quantify the amount of intracellular HBV replicative intermediates (RI). The quantification of virion DNA and the HBV RI were done by blot hybridization methods (Korba, B. E., et al. Antivir. Res., 19:55-70, 1992; Korba, B. E., et al. Antivir. Res., 15:217-228, 1991). Cellular toxicity against separate cultures of confluent 2.2.15 cells was measured after treatment with the compounds for nine days under identical culture conditions as those used for the antiviral assay (Korba, B. E., et al. Antivir. Res., 19:55-70, 1992). Uptake of neutral red dye by treated cells was compared with dye uptake by untreated control cells (Korba, B. E., et al. Antivir. Res., 19:55-70, 1992).

| SMILES | TI (2.2.15 cells, Example 13) | Selectivity Index HBV RI (CC50/EC50 ratio, HBV RI) | Selectivity Index Virion (CC50/EC50 ratio) |
| --- | --- | --- | --- |
| N=c1[nH]c(=O)c2ncn([C@@H]3O[C@H](CO)[C@@H](O)[C@H]3O)c2c(=O)[nH]1 [Compound 14-1, 6-Imino-6H-1-β-D-ribofuranosyl-4,5,7,8-tetrahydroimidazo[4,5-e][1,3]diazepine-4,8-dione] | > 14,000 | 4018 | 18526 |
| N=c1nc(N)c2ncn([C@@H]3O[C@H](CO)[C@@H](O)[C@H]3O)c2c(N)n1 [Compound 14-2, 4,8-Diamino-6H-6-imino-1-β-D-ribofuranosylimidazo[4,5-e][1,3]diazepine] |  |  | 1262 |
